In ChEMBL document CHEMBL3244321, “Nitramino acids. Synthesis and biological evaluation of 1-nitroproline, 1-nitropipecolic acid, and N-nitrosarcosine” (J Med Chem, 1977):
Calls of active or inactive are those of the source.

Columns and labels:
Format in all cases: functional, organism-based
Escherichia coli = experiment: Antibacterial activity against Escherichia coli ATCC 25922 assessed as inhibition of bacterial growth at up to 100 ug/ml after 16 hrs by spectrophotometer
Procedure, shortened: (§1)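 Tested at 10, 25, 50 and 100 µg/mL in Mueller-Hinton broth at 37 °C with rotary shaking at 150 rpm. Incubation was 16 h for E. coli and 7 h for P. aeruginosa. Growth was read turbidimetrically at 600 nm.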

[1] = tested on: Mycolicibacterium smegmatis; experiment: Antibacterial activity against Mycobacterium smegmatis H607 assessed as inhibition of bacterial growth up to 100 ug/ml after 22 hrs by spectrophotometer
Procedure, shortened: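 Sauton synthetic medium, with compound at 10, 25, 50 and 100 µg/mL. Incubated 22 h at 37 °C with rotary shaking at 150 rpm. Growth was measured turbidimetrically at 600 nm.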

Candida albicans [2] = experiment: Antifungal activity against Candida albicans ATCC 11651 assessed as inhibition of fungal growth up to 100 ug/ml after 16 hrs by spectrophotometer
Procedure, shortened: (§2)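 Yeast nitrogen base (pH 7.0), with compound at 10, 25, 50 and 100 µg/mL. Incubated 16 h at 37 °C with 150 rpm rotary shaking. Turbidity was read at 600 nm.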

Pseudomonas aeruginosa = experiment: Antibacterial activity against Pseudomonas aeruginosa ATCC 27853 assessed as inhibition of bacterial growth at up to 100 ug/ml after 7 hrs by spectrophotometer; procedure, shortened: as §1
Candida albicans [3] = experiment: Antifungal activity against Candida albicans clinical isolate assessed as inhibition of fungal growth up to 100 ug/ml after 16 hrs by spectrophotometer; procedure, shortened: as §2

Measured: inhibition

CN(CC(=O)O)[N+](=O)[O-]
inactive: all assays above
